Molecular target: HCoV-229E spike (S) protein, S2 subunit fusion core (HR1/HR2) (human coronavirus 229E, UniProt P15423)
Experiment: cell-based or functional assay

SLTQINTTLLDLEYEMRSLEEVVKKLNESYIDLKEL [peptide #11]
IC50 (plaque reduction test, Vero E6 cells): 6.63 µg/mL

— patent publication US11707504B1 (KING FAISAL UNIVERSITY, dated 2023)
